Anti-infective test results gathered from many reports (values: NIAID ChemDB through PubChem).

Shared fields: growth or infection tests; organism: Aspergillus niger; endpoint: zone

Lines come from different laboratories, so protocols vary.

| compound | strain | method | dose | result |
|---|---|---|---|---|
| Cc1cccc(C)c1N=Nc1c(C)[nH]n(C(=O)c2sc3ccc(Cl)cc3c2Cl)c1=O | ATCC 9029 | agar diffusion / agar | 40 µg/mL | 10 mm |
| N#C/C(=C\c1ccc(Cl)cc1)c1ccccc1 | - | agar diffusion | 100 µg | 0 mm |
| CC(=O)Nc1nc(C)c(-c2n[nH]c(=S)n2N2C(=O)CSC2c2ccc(O)cc2)s1 | - | agar diffusion | 100 µg/mL | 18 mm |
| COc1cc(/C=C/C(=O)O)ccc1O | ATCC64958 | agar diffusion / agar | 100 µg/disc | 39 mm |
| CCOC(=O)c1ccc(N=Nc2c(C)[nH]n(C(=O)c3sc4ccc(Cl)cc4c3Cl)c2=O)cc1 | ATCC 9029 | agar diffusion / agar | 40 µg/mL | 17 mm |
| Cc1n[nH]c(=S)n1N=C/C=C/c1c(-c2ccc(F)cc2)c2ccccc2n1C(C)C | - | - | 100 µg/mL | 12 mm |
| O=[N+]([O-])c1ccc(NCc2cc3ccccc3nc2Cl)cc1 | MTCC 281 | agar diffusion | 200 µg/mL | 8.06 mm |
| NC(=S)NNC(=O)c1cc2ccccc2[nH]1 | - | agar diffusion | 5000 µg/mL | 0 mm |
| Cc1ccc(S(=O)(=O)CNc2oc3[nH]c(=O)[nH]c(=O)c3c2-c2ccc(O)cc2)cc1 | - | agar diffusion / agar | 50 µg/mL | 0 mm |
| O=C1NC2(CO1)O/C(=C/c1ccc([N+](=O)[O-])cc1)C(=O)N2CCCNc1ccnc2cc(Cl)ccc12 | - | agar diffusion | 200 µg/mL | 39 mm |
| C=C1CC[C@H](OC(C)=O)[C@@]2(C)[C@@H](OC(=O)CC(C)C)C[C@@H](OC(C)=O)[C@]3(CO3)[C@@H]2[C@H](OC(C)=O)[C@]2(O)[C@@H](C)C(=O)O[C@H]2[C@H]1Cl | - | agar diffusion / agar | 200 µg/mL | 6 mm |
| CC(=Nc1cccc2cccc(N=C(C)c3c(O)ccc4c(C)cc(=O)oc34)c12)c1c(O)ccc2c(C)cc(=O)oc12 | MTCC 1881 | - | 100 µg/mL | 7 mm |
| Fc1ccc(NCc2cc3ccccc3nc2Cl)cc1 | MTCC 281 | agar diffusion | 200 µg/mL | 14.76 mm |
| COc1ccc(/C=C2/OC3(COC(=O)N3)N(CCCNc3ccnc4cc(Cl)ccc34)C2=O)cc1 | - | agar diffusion | 200 µg/mL | 14 mm |
| Cc1ccc(S(=O)(=O)CNc2oc3[nH]c(=O)[nH]c(=O)c3c2-c2ccc(Cl)cc2)cc1 | - | agar diffusion / agar | 100 µg/mL | 6 mm |
| Clc1ccccc1NCc1cc2ccccc2nc1Cl | MTCC 281 | agar diffusion | 200 µg/mL | 13.9 mm |
| CC(=O)Nc1nc(C)c(-c2n[nH]c(=S)n2N2C(=O)CSC2c2ccc(Cl)cc2)s1 | - | agar diffusion | 100 µg/mL | 24 mm |
| Cc1ccccc1NCc1cc2ccccc2nc1Cl | MTCC 281 | agar diffusion | 200 µg/mL | 8.66 mm |
| Cc1[nH]n(C(=O)c2sc3ccc(Cl)cc3c2Cl)c(=O)c1N=Nc1c(Br)cc(Br)cc1Br | ATCC 9029 | agar diffusion / agar | 40 µg/mL | 18 mm |
| N#C/C(=C\c1ccccc1[N+](=O)[O-])c1ccc([N+](=O)[O-])cc1 | - | agar diffusion | 100 µg | 0 mm |
| Cc1ccc(S(=O)(=O)CNc2oc3[nH]c(=O)[nH]c(=O)c3c2-c2ccsc2C=O)cc1 | - | agar diffusion / agar | 50 µg/mL | 0 mm |
| C=C1CC[C@H](C)[C@@]2(C)[C@@H](OC(=O)CC(C)C)C[C@@H](OC(C)=O)[C@]3(CO3)[C@@H]2[C@H](OC(C)=O)[C@@]2(O)[C@H](C1)OC(=O)[C@@H]2C | - | agar diffusion / agar | 200 µg/mL | 18 mm |
| N#C/C(=C\c1ccccc1Cl)c1ccccc1 | - | agar diffusion | 100 µg | 0 mm |
| COc1ccc(C2SCC(=O)N2n2c(-c3sc(NC(C)=O)nc3C)n[nH]c2=S)cc1 | - | agar diffusion | 100 µg/mL | 9 mm |
| CC1OC2=C(C(=O)c3ccccc3C2=O)C1(C)C | ATCC64958 | agar diffusion / agar | 100 µg/disc | 42 mm |
| N#C/C(=C\c1ccccc1Cl)c1ccc([N+](=O)[O-])cc1 | - | agar diffusion | 100 µg | 0 mm |
| COc1cc(C2SCC(=O)N2n2c(-c3sc(NC(C)=O)nc3C)n[nH]c2=S)cc(OC)c1OC | - | agar diffusion | 100 µg/mL | 17 mm |
| N#C/C(=C\c1ccccc1[N+](=O)[O-])c1ccccc1 | - | agar diffusion | 100 µg | 0 mm |
| CC(=O)Nc1ccc(N=Nc2c(C)[nH]n(C(=O)c3sc4ccc(Cl)cc4c3Cl)c2=O)cc1 | ATCC 9029 | agar diffusion / agar | 40 µg/mL | 15 mm |
| CC(C)c1ccc2c(c1)CCC1C(C)(C)[C@@H](O)CC[C@]21C | ATCC64958 | agar diffusion / agar | 100 µg/disc | 25.3 mm |
| CCOC(=O)c1cc2ccccc2[nH]1 | - | agar diffusion | 5000 µg/mL | 1.3 mm |
| CC(=O)N1N=C(c2sc3ccc(Cl)cc3c2Cl)OC1c1cc2cc(C)ccc2nc1Cl | ATCC 9029 | agar diffusion / agar | 40 µg/mL | 11 mm |
| CCCCCCCCCCCCCCCCCCCCCC[C@H](O)CCCCCC | - | agar diffusion / agar | 1000 µg/mL | 11.5 mm |
| OC(Cn1cncn1)(Cn1cncn1)c1ccc(F)cc1F | - | - | 100 µg/mL | 100 mm |
| N#C/C(=C\c1ccc(Cl)cc1)c1ccc([N+](=O)[O-])cc1 | - | agar diffusion | 100 µg | 0 mm |
| CN(Cc1cc2ccccc2nc1Cl)c1ccc(F)c(Cl)c1 | MTCC 281 | agar diffusion | 200 µg/mL | 19.44 mm |
| CC(=O)OC[C@H]1O[C@@H](Sc2n[nH]c(-c3cc4ccccc4[nH]3)n2)[C@H](OC(C)=O)[C@@H](OC(C)=O)[C@@H]1OC(C)=O | - | agar diffusion | 5000 µg/mL | 0 mm |
| COc1ccc(/C=C(\C#N)c2ccc([N+](=O)[O-])cc2)cc1 | - | agar diffusion | 100 µg | 0 mm |
| Clc1nc2ccccc2cc1CNCc1ccccc1 | MTCC 281 | agar diffusion | 200 µg/mL | 15.69 mm |

A second listing of 2 rows from above:

| compound | strain | method | dose | result |
|---|---|---|---|---|
| N#C/C(=C\c1ccccc1[N+](=O)[O-])c1ccccc1 | - | agar diffusion | 100 µg | 0 mm |
| N#C/C(=C\c1ccc(Cl)cc1)c1ccccc1 | - | agar diffusion | 100 µg | 0 mm |

Blank or dashed fields: not listed here. Zone: diameter of growth inhibition.